Measured values from ChEMBL document CHEMBL3045284 (Crop Prot, 2009).
In brackets after ≈: the same amount, converted by molar mass.

How the values were obtained:
Pyricularia oryzae [1] = test: Antifungal activity against drug-resistant Magnaporthe oryzae HM158 assessed as inhibition of mycelial growth
Pyricularia oryzae [2] = test: Antifungal activity against drug-sensitive Magnaporthe oryzae KN144 assessed as inhibition of mycelial growth
Pyricularia oryzae [3] = test: Antifungal activity against drug-sensitive Magnaporthe oryzae CC056 assessed as inhibition of mycelial growth
Pyricularia oryzae [4] = test: Antifungal activity against drug-resistant Magnaporthe oryzae DH156 assessed as inhibition of mycelial growth
Pyricularia oryzae [5] = test: Antifungal activity against drug-resistant Magnaporthe oryzae KJ163 assessed as inhibition of mycelial growth
Pyricularia oryzae [6] = test: Antifungal activity against drug-sensitive Magnaporthe oryzae KH146 assessed as inhibition of mycelial growth
Pyricularia oryzae [7] = test: Antifungal activity against drug-resistant Magnaporthe oryzae infected six-leaf stage of rice plant assessed susceptible lesion number per leaf area treated 24 hr before fungal infection measured after 24 hr
Pyricularia oryzae [8] = test: Antifungal activity against drug-resistant Magnaporthe oryzae KJ120 assessed as inhibition of mycelial growth
Pyricularia oryzae [9] = test: Antifungal activity against drug-sensitive Magnaporthe oryzae CC134 assessed as inhibition of mycelial growth
Pyricularia oryzae [10] = test: Antifungal activity against drug-resistant Magnaporthe oryzae KJ113 assessed as inhibition of mycelial growth
Pyricularia oryzae [11] = test: Antifungal activity against drug-sensitive Magnaporthe oryzae IC029 assessed as inhibition of mycelial growth
Pyricularia oryzae [12] = test: Antifungal activity against drug-resistant Magnaporthe oryzae IC068 assessed as inhibition of mycelial growth
Pyricularia oryzae [13] = test: Antifungal activity against drug-resistant Magnaporthe oryzae IC115 assessed as inhibition of mycelial growth
Pyricularia oryzae [14] = test: Antifungal activity against drug-sensitive Magnaporthe oryzae KH144 assessed as inhibition of mycelial growth
Pyricularia oryzae [15] = test: Antifungal activity against drug-sensitive Magnaporthe oryzae HM036 assessed as inhibition of mycelial growth
Pyricularia oryzae [16] = test: Antifungal activity against drug-sensitive Magnaporthe oryzae HM025 assessed as inhibition of mycelial growth
Pyricularia oryzae [17] = test: Antifungal activity against drug-resistant Magnaporthe oryzae DH189 assessed as inhibition of mycelial growth

Structure (SMILES)	EC50 (Pyricularia oryzae [1])	EC50 (Pyricularia oryzae [2])	EC50 (Pyricularia oryzae [3])	EC50 (Pyricularia oryzae [4])	EC50 (Pyricularia oryzae [5])	EC50 (Pyricularia oryzae [6])	Activity (Pyricularia oryzae [7])	EC50 (Pyricularia oryzae [8])	EC50 (Pyricularia oryzae [9])	EC50 (Pyricularia oryzae [10])	EC50 (Pyricularia oryzae [11])	EC50 (Pyricularia oryzae [12])	EC50 (Pyricularia oryzae [13])	EC50 (Pyricularia oryzae [14])	EC50 (Pyricularia oryzae [15])	EC50 (Pyricularia oryzae [16])	EC50 (Pyricularia oryzae [17])
CC(C)OP(=O)(OC(C)C)SCc1ccccc1 [IPROBENFOS]	42.1 µg/mL (≈ 146 µM)	8.88 µg/mL (≈ 30.8 µM)	10.7 µg/mL (≈ 37.2 µM)	27.1 µg/mL (≈ 94 µM)	26 µg/mL (≈ 90.1 µM)	8.76 µg/mL (≈ 30.4 µM)	1.6 cm2	29.7 µg/mL (≈ 103 µM)	8.92 µg/mL (≈ 30.9 µM)								
CCOP(=O)(Sc1ccccc1)Sc1ccccc1 [EDIFENPHOS]							0.2 cm2			9.94 µg/mL (≈ 32 µM)	5.84 µg/mL (≈ 18.8 µM)	9.91 µg/mL (≈ 31.9 µM)	9.44 µg/mL (≈ 30.4 µM)	3.58 µg/mL (≈ 11.5 µM)	2.41 µg/mL (≈ 7.76 µM)	2.97 µg/mL (≈ 9.57 µM)	7.93 µg/mL (≈ 25.5 µM)
